# Measured data: PubChem BioAssay AID1259414 (Drosophila RNAi Screening Center, 2018)
# Assay: 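Fly genes that alter Wolbachia amount inside host cells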 (primary screen)
# Cell system: Drosophila JW18 cells infected with Wolbachia
# Knock-down reagent: long dsRNA against Drosophila genes, 0.25 µg dsRNA per well of a 384-well plate
# Duration: 5 days
# Challenge: cells persistently infected with Wolbachia before knock-down; no added drug
# Measured: 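Automated imaging of bacterial rRNA staining divided by host cell count, reported as plate-normalised robust z-score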
# Reading the numbers: Wolbachia per cell robust z: higher = more Wolbachia per host cell than the plate typical
# Call rule: 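Active if absolute robust z reaches 1.5 in two or more of three replicates, leaving out multi- or no-target dsRNAs, genes unexpressed in JW18 and A1 wells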
# In all, the deposit lists about 24,000 reagents; shown is an unselected part of those with a known target gene and a result. In the full data, about 1,210 (5%) got an active call. 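Inactive calls also include excluded dsRNAs with several or no targets, genes unexpressed in JW18, and well A1, regardless of score.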 Reagents against one gene are numbered here. Names joined by + are all predicted targets of the reagent. Reagent sequences are not shown.
predicted target,dsRNA no.,"Wolbachia per cell robust z, rep 1","Wolbachia per cell robust z, rep 2","Wolbachia per cell robust z, rep 3",outcome
Pdk1,1,2.35,1.62,1.36,active
Pdk1,2,0.138,1.94,1.69,active
CG5928,1,-3.45,-1.55,-0.71,inactive
CG5928,2,-0.55,0.913,-0.0358,inactive
CG3345,1,-6.96,1.68,0.449,inactive
snRNP-U1-70K,1,-3.85,1.1,0.763,inactive
snRNP-U1-70K,2,0.673,0.692,0.835,inactive
snRNP-U1-70K,3,1.85,2.72,2.11,active
eIF2Bdelta,1,0.407,-0.299,-0.021,inactive
Ugt49B1,1,-5.61,0.534,-5.03,inactive
Ugt49B1,2,0.638,0.0487,0.103,inactive
Pcl,1,-0.387,-1.62,-2.05,active
Pcl,2,0.835,0.565,0.536,inactive
CG8924,1,0.819,0.0351,-3.81,inactive
CG6191,1,0.994,0.543,0.957,inactive
jagn,1,-2.17,0.238,0.579,inactive
Pp2C1,1,-0.17,0.412,-0.168,inactive
Pp2C1,2,1.14,-0.0659,0.345,inactive
CG15561,1,0.521,0.564,0.844,inactive
CG15561,2,-0.426,0.176,-0.58,inactive
CG14488,1,-0.473,-0.345,-0.677,inactive
Calr,1,-0.165,0.234,0.921,inactive
Calr,2,0.705,1.17,0.227,inactive
CG7888,1,0.0446,1.05,-2.96,inactive
CG13954,1,0.596,-1.45,-0.0796,inactive
CG13954,2,-0.868,-0.893,-1.15,inactive
Rilpl,1,-0.288,-0.548,-0.0794,inactive
Pym,1,0.261,0.353,-3.46,inactive
PRL-1,1,2.06,0.168,0.518,inactive
PRL-1,2,0.744,0.705,1.4,inactive
Wdr37,1,1.35,0.453,0.528,inactive
Irbp,1,-2.09,-0.341,-3.9,active
Irbp,2,0.181,-0.321,-0.476,inactive
Irbp,3,1.47,0.551,0.228,inactive
Qsox1,1,0.521,0.528,-0.349,inactive
Qsox1,2,-0.648,-0.486,-4.98,inactive
CG17570,1,-0.926,-0.817,-1.18,inactive
CG17570,2,1.18,0.576,0.601,inactive
Tmep,1,1.05,0.858,0.602,inactive
Tmep,2,0.198,-0.353,-0.402,inactive

Continued; the last 9 above are carried over.
predicted target,dsRNA no.,"Wolbachia per cell robust z, rep 1","Wolbachia per cell robust z, rep 2","Wolbachia per cell robust z, rep 3",outcome
Irbp,1,-2.09,-0.341,-3.9,active
Irbp,2,0.181,-0.321,-0.476,inactive
Irbp,3,1.47,0.551,0.228,inactive
Qsox1,1,0.521,0.528,-0.349,inactive
Qsox1,2,-0.648,-0.486,-4.98,inactive
CG17570,1,-0.926,-0.817,-1.18,inactive
CG17570,2,1.18,0.576,0.601,inactive
Tmep,1,1.05,0.858,0.602,inactive
Tmep,2,0.198,-0.353,-0.402,inactive
CG13575,1,0.225,-1.53,-2.64,inactive
CG13575,2,0.366,-0.386,0.27,inactive
clu,1,0.173,-0.128,-0.0536,inactive
clu,2,0.559,0.928,0.741,inactive
Idgf6,1,-5.95,-0.322,-0.128,inactive
Idgf6,2,-0.373,0.285,-0.37,inactive
Mettl3,1,-0.00385,-2.46,-0.384,inactive
Mettl3,2,-0.432,-0.915,0.532,inactive
TwdlO,1,-3.44,-2.04,0.663,inactive
Sirt1,1,0.34,-0.829,1.03,inactive
hpo,1,0.873,0.471,-0.325,inactive
ssp3,1,-0.575,-0.324,-0.0538,inactive
ssp3,2,-1.63,0.525,-0.0433,inactive
ssp3,3,-0.329,-1.28,-1.56,inactive
CG42496 + Ppcdc,1,0.394,0.165,0.46,inactive
unc-104,1,0.191,0.903,0.931,inactive
wal,1,-0.454,0.531,-0.404,inactive
wal,2,1.7,1.37,0.332,inactive
mor,1,1.85,1.66,1.06,active
mor,2,-0.7,-1.04,-1.44,inactive
CG3448,1,-2.97,-0.336,0.601,inactive
CG3448,2,0.793,-0.308,-1.17,inactive
CG5521,1,0.396,-3.8,0.858,inactive
CG5521,2,0.608,0.79,-0.0944,inactive
CG15820,1,-1.17,-1.09,-6.78,inactive
CG15820,2,-0.15,-0.82,0.126,inactive
E(spl)mbeta-HLH,1,-8.72,-0.581,1.49,inactive
E(spl)mbeta-HLH,2,-3.43,-0.601,-0.0611,inactive
